Results of unrelated studies side by side (data: NIAID ChemDB).

Common to all: growth or infection tests; species: Candida albicans

An empty or dashed field is not shown.

c1ccc(C(c2nccc3ccccc23)n2ccnc2)cc1 ; strain: 44 strains ; endpoint: MIC90 ; result: 256 µg/mL
C[C@@H](N1CCN(Cc2cn(Cc3ccc(F)cc3)c3c(F)cccc23)CC1)[C@](O)(Cn1cncn1)c1ccc(F)cc1F ; strain: ATCC 36082 ; method: resazurin ; endpoint: MIC80 ; result: 8 µg/mL
CC(=O)OC[C@H]1O[C@@H](O[C@@H]2[C@@H](N=[N+]=[N-])[C@H](O)[C@H](O)[C@H]3OC(C)(C)O[C@H]32)[C@H](OC(C)=O)[C@@H](OC(C)=O)[C@H]1OC(C)=O ; strain: ATCC 10231 ; method: broth dilution / turbidity ; endpoint: inhibition ; dose: 7.8 µg/mL ; result: 7.28%
CC(C)(O)c1cn(-c2cccc3ccccc23)nn1 ; strain: URM 4124 ; method: broth dilution ; endpoint: inhibition ; dose: 2048 µg/mL ; result: 0%
c1csc(C(c2nccc3ccccc23)n2ccnc2)c1 ; strain: 44 strains ; endpoint: Mean MIC ; result: 99.3 µg/mL
COC(=O)[C@H]1[C@@H]2C[C@@H](O[C@@H]3O[C@H](C)[C@@H](O)[C@H](N)[C@@H]3O)/C=C/C=C/C=C/C=C/C=C/C=C/C=C/[C@H](C)[C@@H](O)[C@H](C)[C@H](C)OC(=O)C[C@H](O)C[C@H](O)[C@@H](O)CC[C@H](O)C[C@H](O)C[C@](O)(C[C@@H]1O)O2 ; strain: 15 isolates ; method: broth dilution ; conditions: pH 4 ; endpoint: EC90 ; result: 8 µg/mL
Fc1ccc(COc2ccc(C(c3ccc(-c4ccccc4)cc3)n3ccnc3)cc2)cc1.O=[N+]([O-])O ; strain: 16 strains ; endpoint: MIC90 ; result: ≥256 µg/mL
C[C@@H](N1CCN(Cc2cn(Cc3ccc(C(F)(F)F)cc3)c3cc(Cl)ccc23)CC1)[C@](O)(Cn1cncn1)c1ccc(F)cc1F ; strain: ATCC 90028 ; method: resazurin ; endpoint: MIC80 ; result: 0.125 µg/mL
Clc1ccccc1COc1ccc(C(c2cccc3ccccc23)n2ccnc2)cc1.O=[N+]([O-])O ; strain: 16 strains ; endpoint: MIC90 ; result: ≥256 µg/mL
C[C@@H](N1CCN(Cc2cn(Cc3ccc(F)cc3)c3c(Cl)cccc23)CC1)[C@](O)(Cn1cncn1)c1ccc(F)cc1F ; strain: ATCC 64548 ; method: resazurin ; endpoint: MIC80 ; result: 0.125 µg/mL
Fc1ccccc1C(c1nccc2ccccc12)n1ccnc1 ; strain: 44 strains ; endpoint: Mean MIC ; result: 193 µg/mL
CC(C)(O)c1cn(-c2ccc([N+](=O)[O-])cc2)nn1 ; strain: URM 4609 ; method: broth dilution ; endpoint: inhibition ; dose: 2048 µg/mL ; result: 0%
OC(CN1CCN(c2ccc(OCc3ccncc3)cc2)CC1)(Cn1cncn1)c1ccc(F)cc1F ; strain: 304103 ; endpoint: MIC80 ; result: 2 µg/mL
C=CCc1ccc(OC)c(OC)c1 ; strain: 2434 ; method: turbidity ; endpoint: MIC90 ; result: 345 µg/mL
Clc1ccc(COc2ccc(C(c3nccc4ccccc34)n3ccnc3)cc2)cc1.O=[N+]([O-])O ; strain: 17 strains ; endpoint: Mean MIC ; result: ≥256 µg/mL
CC(C)N=C(N)c1ccc2nc(-c3ccc4c(c3)Cc3cc(-c5nc6ccc(C(N)=NC(C)C)cc6[nH]5)ccc3-4)[nH]c2c1 ; strain: Isolate 17 (strain 12-99) ; endpoint: MFC ; result: 3.12 µg/mL
Fc1ccc(COc2ccc(C(c3ccc4ccccc4c3)n3ccnc3)cc2)c(F)c1.O=[N+]([O-])O ; strain: 16 strains ; endpoint: Mean MIC ; result: ≥256 µg/mL
CC(C)(O)c1cn(-c2ccc3ccccc3c2)nn1 ; strain: URM 4820 ; method: broth dilution ; endpoint: inhibition ; dose: 2048 µg/mL ; result: 0%
C[C@H]1[C@H](O)[C@@H](C)/C=C/C=C/C=C/C=C/C=C/C=C/C=C/[C@H](O[C@@H]2O[C@H](C)[C@@H](O)[C@H](N)[C@@H]2O)C[C@@H]2O[C@](O)(C[C@@H](O)C[C@@H](O)CC[C@H](O)[C@@H](O)C[C@@H](O)CC(=O)O[C@H]1C)C[C@H](O)[C@H]2C(=O)O ; strain: 12 isolates ; endpoint: MFC50 ; result: 0.5 µg/mL
CC[C@@H]([C@H](C)O)n1ncn(-c2ccc(N3CCN(c4ccc(OC[C@@H]5CO[C@@](Cn6cncn6)(c6ccc(F)cc6F)C5)cc4)CC3)cc2)c1=O ; strain: 10 isolates ; method: broth dilution ; conditions: pH 4 ; endpoint: EC90 ; result: 16 µg/mL
C[C@@H](N1CCN(Cc2cn(Cc3ccc(C(F)(F)F)cc3)c3c(F)cccc23)CC1)[C@](O)(Cn1cncn1)c1ccc(F)cc1F ; strain: ATCC 90028 ; method: resazurin ; endpoint: MIC80 ; result: 0.125 µg/mL
Cc1ccc(C(C)C)c(O)c1 ; strain: ATCC 10231 ; endpoint: MLC ; result: 0.32 µg/mL
CCC(C)c1ccc(Cn2cc(CN3CCN([C@H](C)[C@](O)(Cn4cncn4)c4ccc(F)cc4F)CC3)c3ccccc32)cc1 ; strain: ATCC MYA-1003 ; method: resazurin ; endpoint: MIC80 ; result: 32 µg/mL
Nc1[nH]c(=O)ncc1F ; strain: 15 isolates ; method: broth dilution ; conditions: pH 6 ; endpoint: EC90 ; result: 0.5 µg/mL
CC(O)Cc1ccc(Cn2cc(CN3CCN([C@H](C)[C@](O)(Cn4cncn4)c4ccc(F)cc4F)CC3)c3ccccc32)cc1 ; strain: ATCC 64548 ; method: resazurin ; endpoint: MIC80 ; result: 8 µg/mL
Oc1ccc2cc1Oc1ccc(cc1)CCc1ccc(c(O)c1)-c1c(O)cccc1CC2 ; strain: CA10 ; method: broth dilution ; endpoint: MIC80 ; result: 16 µg/mL
C[C@@H](N1CCN(Cc2cn(Cc3ccc(F)cc3F)c3ccccc23)CC1)[C@](O)(Cn1cncn1)c1ccc(F)cc1F ; strain: ATCC MYA-1003 ; method: resazurin ; endpoint: MIC80 ; result: 8 µg/mL
NCCCC[C@H](NC(=O)[C@@H](N)CCCCN)C(=O)N[C@@H](CCC(N)=O)C(=O)N[C@@H](CCCN=C(N)N)C(=O)O ; strain: ATCC 10231 ; endpoint: inhibition ; dose: 200 µM ; result: 6%
Clc1ccc(COc2ccc(C(c3nccc4ccccc34)n3ccnc3)cc2)c(Cl)c1 ; strain: 17 strains ; endpoint: Mean MIC ; result: ≥256 µg/mL
CC(O)Cn1cc(CN2CCN([C@H](C)[C@](O)(Cn3cncn3)c3ccc(F)cc3F)CC2)c2cccc(Cl)c21 ; strain: ATCC 64548 ; method: resazurin ; endpoint: MIC80 ; result: 1 µg/mL

A second listing of 2 rows from above:

compound | strain | method | conditions | endpoint | dose | result
CC(O)Cc1ccc(Cn2cc(CN3CCN([C@H](C)[C@](O)(Cn4cncn4)c4ccc(F)cc4F)CC3)c3ccccc32)cc1 | ATCC 64548 | resazurin | - | MIC80 | - | 8 µg/mL
Fc1ccc(COc2ccc(C(c3ccc(-c4ccccc4)cc3)n3ccnc3)cc2)cc1.O=[N+]([O-])O | 16 strains | - | - | MIC90 | - | ≥256 µg/mL

MIC50, MIC90 and the like: level of inhibition, or share of isolates inhibited. Inhibition is in % at the dose shown (toxicity tests: loss of growth or viability). ECn: concentration that inhibits the pathogen or its effect by n%. Rows are shuffled and stem from different studies.